According to PubChem BioAssay AID1063 (University of Pittsburgh Molecular Library Screening Center, 2008):
The list shows a part of the results, in another mix than the full data. Calls of active or inactive are those of the source. Cut-off read from the data, not from the text of the source: active = inhibition above about 50%; inactive = the rest.

Experiment: antileishmanial activity against promastigotes – primary screen (AID 1063);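 note: promastigotes grown with compound for 44 hours at 28 °C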
Conditions: Leishmania major promastigotes, resazurin fluorescence viability; at 10 µM; active compounds read high

Compound | inhibition
O=P1(Nc2ccccn2)COc2ccccc2OC1 | inactive: 1.07%
Clc1n[nH]nc1-c1nn[nH][15n]1 | inactive: -5.31%
CC(C)/C=N\N=C(\N)N[N+](=O)[O-] | inactive: -6.7%
CC1(CBr)Cn2c(nc3ccccc3c2=O)S1 (centres undefined) | inactive: 17.1%
Cc1nn(-c2ccccc2)c2c1P(=O)(N1CCOCC1)N(C)C(c1ccccc1)=N2 (centres undefined) | inactive: -5.4%
CC1CCC(C(C)C)C(OP(=O)(Nc2ccccn2)c2ccccc2)C1 (centres undefined) | inactive: 26.7%
CN(C)C1(CNC(=O)c2ccc(S(C)(=O)=O)cc2)CCCCC1 | inactive: -4.28%
O=P1(Nc2ncccn2)COc2ccccc2OC1 | inactive: -2.84%
O=P1(Nc2ccc(Br)cn2)COc2ccccc2OC1 | inactive: -5.08%
Cc1ccc(OCC(=O)OC2CN3CCC2CC3)cc1 (centres undefined) | inactive: -4.42%
CCOP1(=S)c2c(C)nn(CCC#N)c2N=C(c2ccccc2F)N1C (centres undefined) | inactive: -5.19%
O=P(Nc1nccs1)(c1ccccc1)c1nc2ccccc2s1 (centres undefined) | inactive: -6.01%
O=P(Nc1nccs1)(Oc1ccccc1)Oc1ccccc1 | inactive: -0.81%
CCOP1(=S)c2c(C)nn(CCC#N)c2N=C(c2ccc(F)cc2)N1C (centres undefined) | inactive: -6.15%
O=[N+]([O-])c1ccc2c(c1)nnn2O | inactive: -4.41%
COc1cc(C(=O)NCC2(N3CCOCC3)CCCCC2)cc(Cl)c1OC(C)C | inactive: 26.6%
Cc1cccc(OCC(=O)OC2CN3CCC2CC3)c1 (centres undefined) | inactive: -5.03%
Cc1ccc(NCCc2c([N+](=O)[O-])cc([N+](=O)[O-])cc2[N+](=O)[O-])cc1 | active: 64.8%
COc1cc(C2NCCC3(OCCO3)C2(C)C)cc(OC)c1OC (centres undefined) | inactive: 48.5%
CCOP(=O)(Nc1cccc2ccccc12)OCC | inactive: -3.89%
Cc1c2c(nc3ccccc13)SC(C(Cl)Cl)C2 (centres undefined) | inactive: -4.15%
O=C(OC1CN2CCC1CC2)C12CC3CC(CC(C3)C1)C2 (centres undefined) | active: 86.5%
Cc1cc(=O)[nH]c(N[N+](=O)[O-])n1 | inactive: -6.44%
COc1ccc2nc(NP(=O)(c3ccccc3)c3ccccc3)sc2c1 | inactive: 4.85%
COc1ccc(N/C(=N/P(=O)(N2CCOCC2)N2CCOCC2)N2CCOCC2)cc1 | inactive: -8.13%
Cc1ccc2nc3c(c(C)c2c1)CC(C(Cl)Cl)S3 (centres undefined) | inactive: 1.95%
ClCCSc1nnc(-c2cccnc2)o1 | inactive: -2.71%

Compound | inhibition
CCN(CC)C(=S)SC(NC=O)C(Cl)(Cl)Cl (centres undefined) | active: 100%
CC(C)NC(=O)NP(=O)(Oc1ccccc1)Oc1ccccc1 | inactive: -6.55%
O=[N+]([O-])c1cc([N+](=O)[O-])c(-c2ccn[nH]2)s1 | active: 100%
Cc1cc(SC(NC(=O)c2ccccc2)C(Cl)(Cl)Cl)nc(C(C)C)n1 (centres undefined) | inactive: -1.35%
O=P(Nc1ccccn1)(c1cccc2ccccc12)c1cccc2ccccc12 | inactive: 4.71%
Cc1cc(SC(NC=O)C(Cl)(Cl)Cl)ncn1 (centres undefined) | inactive: -5.25%
COP1(=S)c2c(C)nn(CCC#N)c2N=C(c2ccc(F)cc2)N1C (centres undefined) | inactive: 1.43%
O=C(COc1ccccc1)OC1CN2CCC1CC2 (centres undefined) | inactive: -0.22%
CCC(C)N(CC(C)C)C(=S)SC(NC(C)=O)C(Cl)(Cl)Cl (centres undefined) | inactive: 30.9%
COc1ccc(C2=NCC(CBr)S2)cc1 (centres undefined) | inactive: -7.26%
Cc1ccc(NP(=O)(Oc2ccccc2)Oc2ccccc2)nc1 | inactive: 17.5%
CCc1nc2c(n1)c1c(non1O)c1c2no[n+]1[O-] | active: 55.3%
O=[N+]([O-])c1cc([N+](=O)[O-])c(CCNc2ccccc2)c([N+](=O)[O-])c1 | active: 98.6%
O=[N+]([O-])c1cccc2n[nH]nc12 | inactive: -3.6%
CC(=O)N1C2C3N(C(C)=O)C1C1N(C(C)=O)C(C(N1C(C)=O)N3C(C)=O)N2C(C)=O | inactive: -4.82%
CCN(/C(=N/P(=O)(N1CCOCC1)N1CCOCC1)N1CCOCC1)c1ccc(OC)cc1 | inactive: -6.79%
CC1CCN(C(=O)Oc2c(Cl)cc(Cl)c3cccnc23)CC1 | inactive: 14.8%
CC(C)=N/N=C(\N)N[N+](=O)[O-] | inactive: -3.38%
CN(C)C(=O)OCCc1n(C)cc[n+]1C | inactive: -5.28%
O=[N+]([O-])c1ncn(CCn2ncnc2[N+](=O)[O-])n1 | inactive: 7.1%
CCOP(=O)(Nc1ccccc1)OCC | inactive: -1.24%
Cc1cc(SC(NC(=O)c2ccc(F)cc2)C(Cl)(Cl)Cl)ncn1 (centres undefined) | inactive: -3.6%
CCN(N=Nc1nonc1N)c1nonc1N | inactive: 37.5%
Cc1ccc(N/C(=N/P(=O)(N2CCOCC2)N2CCOCC2)N2CCOCC2)cc1 | inactive: 4.84%
NC(=O)c1cc([N+](=O)[O-])cc([N+](=O)[O-])c1N | inactive: 18.2%
Clc1ccc(Cl)c(NC2=NCC(CBr)S2)c1 (centres undefined) | inactive: 7.89%
CN1CCCC(OC(=O)C(c2ccccc2)c2ccccc2)C1 (centres undefined) | inactive: 5.89%

Compound | inhibition
COc1ccccc1OP(=O)(Nc1ccc(C)cn1)Oc1ccccc1OC | inactive: 4.5%
Oc1ccccc1CNc1ccccn1 | inactive: -1.34%
Cc1c2non([O-])c-2c(C)[n+](=O)[n+]1[O-] | inactive: 17.3%
O=C(NC(Sc1ccncn1)C(Cl)(Cl)Cl)c1ccccc1 (centres undefined) | inactive: -2.22%
CC(C)CC(=O)NC(Sc1ccc(Cl)cc1)C(Cl)(Cl)Cl (centres undefined) | inactive: 14.4%
O=P1(Nc2nc3ccc(Cl)cc3s2)COc2ccccc2O1 (centres undefined) | inactive: 6.7%
CCOc1ccc(C2=NCC(CBr)S2)cc1 (centres undefined) | inactive: -7.53%
CC(C)(C)C(=O)NC(Sc1ccccc1)C(Cl)(Cl)Cl (centres undefined) | inactive: 11.9%
CC(=O)Nc1ccc(Oc2c([N+](=O)[O-])cc([N+](=O)[O-])cc2[N+](=O)[O-])cc1 | inactive: -6.47%
c1ccc(-c2nn[nH]n2)c(-c2nn[nH]n2)c1 | inactive: -4.61%
CCOC(=O)NC(Sc1ccccc1)C(Cl)(Cl)Cl (centres undefined) | inactive: 6.45%
CCNC(=S)/N=C(\N)N[N+](=O)[O-] | inactive: -4.71%
O=C(NC1CCS(=O)(=O)C1)NP(=S)(Oc1ccccc1)Oc1ccccc1 (centres undefined) | inactive: -7.65%
CCC(=O)N1C2C3N(C(=O)CC)C1C1N(C(=O)CC)C(C(N1C(=O)CC)N3C(=O)CC)N2C(=O)CC | inactive: -6.99%
COC(=O)c1cc2c(s1)N=C(c1ccccc1)N(C)P2(=O)N1CCOCC1 (centres undefined) | inactive: 14.7%
Cc1ccc(OP(=O)(Nc2ccccn2)Oc2ccc(C)cc2)cc1 | active: 96.5%
CC(=O)NC(SC(=S)N(CC(C)C)CC(C)C)C(Cl)(Cl)Cl (centres undefined) | inactive: 32.5%
O=c1c2cc([N+](=O)[O-])ccc2[nH]c2c([N+](=O)[O-])cc([N+](=O)[O-])cc12 | active: 100%
O=P(Nc1ccccn1)(c1ccc(Br)cc1)c1ccc(Br)cc1 | active: 88%
CC(=O)NC(SC(=S)N(C)C)C(Cl)(Cl)Cl (centres undefined) | active: 100%
O=C(OC1CN2CCC1CC2)c1cccc(Cl)c1 (centres undefined) | inactive: 18.2%
C(Cc1nn[nH]n1)Cc1nn[nH]n1 | inactive: -9.83%
CC(C)C(=O)NC(Sc1ccccc1)C(Cl)(Cl)Cl (centres undefined) | inactive: -0.64%
O=P(Nc1nccs1)(c1ccccc1)c1ccccc1 | inactive: -3.67%
c1nnnn1CCn1cnnn1 | inactive: -11.7%
